What was measured:
[1] = target: FplA(20–431) (Fusobacterium nucleatum subsp. nucleatum, UniProt Q8R6F6); test: IC50 assays of FplA inhibitors with 4-MuH substrate; assay type: biochemical, F. nucleatum 25586; settings: 1 nM FplA(20–431), 10 μM 4-MuH, pH 8.5, 26 °C, 30 min
[2] = tested on: FplA(20–760) on the surface of E. coli; test: Enzymatic activity of full-length FplA on the surface of live E. coli with 4-MuH; settings: 10 μM MAFP, 60 min preincubation; 10 μM 4-MuH, 37 °C, 30 min
Procedure: Using the expression vector pDJSVT86 that is described under “Cloning of FplA constructs for expression in E. coli,” we cloned FplA(20–760) into the vector at the 3′ end of the OmpA(1–27)-His6 signal sequence (pDJSVT88). This construct was expressed in LOBSTR RIL ([62]) E. coli in Studier autoinduction medium at 37 °C for 20 h with 250-rpm shaking. The empty vector pDJSVT86 was used as a negative control for FplA expression for both microscopy and enzymatic assays.
For the enzymatic activity assay, stationary phase bacteria from overnight expressions were washed in PBS, pH 7.5, and spun down at 5000 × g for 5 min, followed by resuspension of the bacteria at an A600 = 0.2 in PBS, pH 7.5.

Chains of the proteins cited; added tags and fusions are not shown. Residues count along the entry.
UniProt Q8R6F6, 20-431 limits assumed: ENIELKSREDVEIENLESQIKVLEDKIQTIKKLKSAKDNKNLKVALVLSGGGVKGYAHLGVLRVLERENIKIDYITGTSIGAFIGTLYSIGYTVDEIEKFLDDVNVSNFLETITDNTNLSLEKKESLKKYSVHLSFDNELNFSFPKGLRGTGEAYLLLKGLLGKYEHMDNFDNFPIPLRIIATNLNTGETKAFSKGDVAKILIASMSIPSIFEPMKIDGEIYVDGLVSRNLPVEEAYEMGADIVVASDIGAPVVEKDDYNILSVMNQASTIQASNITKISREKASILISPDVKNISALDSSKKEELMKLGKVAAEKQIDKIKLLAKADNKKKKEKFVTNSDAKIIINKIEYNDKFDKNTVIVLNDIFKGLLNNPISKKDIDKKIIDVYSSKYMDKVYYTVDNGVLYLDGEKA

CCCCC/C=C/C/C=C/C/C=C/C/C=C/CCCCP(=O)(F)OC (centres unmarked)
IC50 [1]: 11 nM
Effect on 4-MuH cleavage (fluorescence) by whole live E. coli expressing FplA [2]: inhibited

Reference: paper PMC5724010 (The Journal of Biological Chemistry, 2017)
